In PMC8126241, “Active Components from Cassia abbreviata Prevent HIV-1 Entry by Distinct Mechanisms of Action” (International Journal of Molecular Sciences, 2021):

Test system: pseudotyped viruses pNL4.3ΔEnvLuc-HXB2/pNL4.3ΔEnvLuc-BAL
Format: cell-based, HIV-1
Conditions: EC95 level, CompuSyn; CI < 0.9 means synergy

Oc1cc(O)cc(/C=C/c2ccc(O)c(O)c2)c1 [piceatannol, trans-3,3′,4,5′-tetrahydroxystilbene]
< 0.9: Combination index (CI) with AMD100 | Combination index (CI) with Maraviroc | Combination index (CI) with T20
